Experimental data as given in paper PMC10733469, “Antiviral activity of chrysin and naringenin against porcine epidemic diarrhea virus infection” (Frontiers in Veterinary Science, 2023).

Assays:
PEDV DY = test: Antiviral activity assay (MTT, virus inhibition rate), PEDV DY; conditions: therapeutic index, ratio CC50 / IC50
PEDV CV777 = test: Antiviral activity assay (MTT, virus inhibition rate), PEDV CV777; conditions: therapeutic index, ratio CC50 / IC50
[1] = system: foot-and-mouth disease virus (FMDV); conditions: BHK-21 cells, viral and post-viral entry experiments, range of 10.00–51.81 μM; cited from earlier work

Row | SMILES | SI PEDV DY (PEDV DY) | SI PEDV CV777 (PEDV CV777) | SI values [1]
1 | O=c1cc(-c2ccccc2)oc2cc(O)cc(O)c12 [Chrysin, chrysin] | 33.63 | 38.1 | –
2 | O=C1C[C@@H](c2ccc(O)cc2)Oc2cc(O)cc(O)c21 [Naringenin, naringenin] | 13.73 | 14.08 | –
3 | NC(=O)c1ncn([C@@H]2O[C@H](CO)[C@@H](O)[C@H]2O)n1 [Ribavirin, ribavirin, reference compound] | 3.49 | 2.82 | –
4 | COc1ccc(-c2cc(=O)c3c(O)cc(O)c(-c4cc(-c5cc(=O)c6c(O)cc(O)cc6o5)ccc4OC)c3o2)cc1 [isoginkgetin] | – | – | greater than 4
5 | O=c1cc(-c2ccc(O)c(O)c2)oc2cc(O)cc(O)c12 [luteolin] | – | – | greater than 4
